Anti-infective test results gathered from many reports (values: NIAID ChemDB through PubChem).

Common to all: tests in culture; species: Candida albicans; read by: broth dilution; endpoint: MIC

Blank or dashed fields: not listed here. a–b is a range or a potency band. Conditions beyond the fields shown may differ between rows.

smiles | strain or isolate | conditions | value
COc1ccc(CN(CC(O)C[N+](C)(C)C)[C@@H]2[C@@H](O)[C@H](O[C@@H]3O[C@H](COCC(=O)O)[C@@H](O[C@@H]4C[C@H](COCC(=O)O)[C@@H](C)[C@H](O)[C@H]4N(Cc4ccc(OC)cc4)CC(O)C[N+](C)(C)C)[C@H](O)[C@H]3N(Cc3ccc(OC)cc3)CC(O)C[N+](C)(C)C)[C@@H](COCC(=O)O)O[C@H]2C)cc1 | RCMB 05031 | - | 75 µg/mL
CCN(CC)C(=O)CC1C(=O)OC(C)(C)CN1CC | SC5314 | - | >50 µg/mL
CC(C)(O)c1cn(-c2ccc(Cl)cc2)nn1 | URM 4606 | - | 128 µg/mL
COc1cncc(/C(N)=N/N=C(\N)c2cncc(OC)n2)n1 | - | - | >256 µg/mL
CCCCCCCCCCCCCCCCCC(=O)NC(CCCN)C(N)=O | ATCC 24433 | - | >100 µg/mL
Cc1ccc2c(c1)nc1c(CN)c(-c3c(-c4ccc(F)cc4)[nH]c4ccccc34)c(CN)c(N)n12 | MTCC 227 | - | 250 µg/mL
CCC[CH2][Sn+3].O=[N+]([O-])c1ccccc1N=C([S-])N/N=C(\c1ccccc1)c1ccccn1 | ATCC 18804 | - | 6.42 µM
COc1ccc(-c2[nH]c3ccccc3c2-c2c(CN)c(N)n3c(nc4cc(C)ccc43)c2CN)cc1 | MTCC 227 | - | 1000 µg/mL
COc1cncc(-c2n[nH]c(-c3cncc(OC)n3)n2)n1 | - | - | >256 µg/mL
C[C@H]1[C@H](O)[C@@H](C)/C=C/C=C/C=C/C=C/C=C/C=C/C=C/[C@H](O[C@@H]2O[C@H](C)[C@@H](O)[C@H](N)[C@@H]2O)C[C@@H]2O[C@](O)(C[C@@H](O)C[C@@H](O)CC[C@H](O)[C@@H](O)C[C@@H](O)CC(=O)O[C@H]1C)C[C@H](O)[C@H]2C(=O)O | MYA-2732 | - | 0.06 µg/mL
CS(=O)(=O)c1ccc(-c2[nH]c3ccccc3c2-c2c(CN)c(N)n3c(nc4ccccc43)c2CN)cc1 | MTCC 227 | - | 500 µg/mL
CCCCCCCCCCCC(=O)NC(CCCN)C(=O)NC(CCCN)C(=O)NC(CCCN)C(N)=O | ATCC 24433 | - | 12.5 µg/mL
Cc1ccc(CN(CC(O)C[N+](C)(C)C)[C@@H]2[C@@H](O)[C@H](O[C@@H]3O[C@H](COCC(=O)O)[C@@H](O[C@@H]4C[C@H](COCC(=O)O)[C@@H](C)[C@H](O)[C@H]4N(Cc4ccc(C)cc4)CC(O)C[N+](C)(C)C)[C@H](O)[C@H]3N(Cc3ccc(C)cc3)CC(O)C[N+](C)(C)C)[C@@H](COCC(=O)O)O[C@H]2C)cc1 | RCMB 05031 | - | 95.16 µg/mL
CC1=C2C3=C4[C@](C)([C@@H]5C[C@@H]5[C@@]4(O)C[C@@H]4[C@]35OC(=O)C3=C5C[C@H]5[C@](O)(COC(=O)/C(C)=C/COC(=O)CCC(=O)OC3)[C@H]3C[C@H]3[C@]45C)[C@@H](O)[C@]2(O)OC1=O | ATCC 90028 | - | 8 µg/mL
Cc1ccc2c(c1)nc1c(CN)c(-c3c(-c4ccc(S(C)(=O)=O)cc4)[nH]c4ccccc34)c(CN)c(N)n12 | MTCC 227 | - | 1000 µg/mL
O=S(=O)(c1ccccc1)n1cnc(-c2cnccn2)n1 | - | - | >256 µg/mL
Nn1c(SCC(O)(Cn2cncn2)c2ccc(Cl)cc2Cl)nnc1-c1ccncc1 | PTCC 6027 | - | >64 µg/mL
Cc1ccc2c(c1)nc1c(CN)c(-c3c(-c4ccccc4)[nH]c4ccccc34)c(CN)c(N)n12 | MTCC 227 | - | 1000 µg/mL
Cc1nn(-c2cccc(Cl)c2)c(Cl)c1C1CC(=O)N(c2ccc(F)cc2)C2=C1C(=O)CC(C)(C)C2 | MTCC 227 | - | 1000 µg/mL
Cc1ccc(-c2nnc(SCC(O)(Cn3cncn3)c3ccc(F)cc3F)n2N)cc1 | IRFC 37 | - | >64 µg/mL
CCCCCCCCCCCCCC(=O)NC(CCCN)C(=O)NC(CCCN)C(=O)NC(CCCN)C(=O)NC(CCCN)C(=O)NC(CCCN)C(N)=O | ATCC 24433 | - | 6.25 µg/mL
COc1ccc(N2C(=O)CC(c3c(C)nn(-c4ccccc4)c3Cl)C3=C2CCCC3=O)cc1 | MTCC 227 | - | 500 µg/mL
CN1CCN(c2n[nH]c(N3C(=O)CS[C@@H]3c3ccc(Cl)cc3)n2)CC1 | A39 | - | 100 µg/mL
O=S1N=C(c2cnccn2)NN1c1ccccc1 | - | - | 32 µg/mL
CCCCCCCCCC(=O)NC(CCCN)C(=O)NC(CCCN)C(=O)NC(CCCN)C(=O)NC(CCCN)C(N)=O | ATCC 24433 | - | >100 µg/mL
C/C(=N\NC([S-])=Nc1ccccc1Cl)c1ccccn1.CCC[CH2][Sn+3] | ATCC 18804 | - | 29.06 µM
CCCCCCCCCCCCCC(=O)NC(CCCN)C(=O)NC(CCCN)C(=O)NC(CCCN)C(=O)NC(CCCN)C(N)=O | ATCC 24433 | - | 6.25 µg/mL
CN1CCN(c2n[nH]c(N3C(=O)CS[C@@H]3c3ccc4c(c3)OCO4)n2)CC1 | 116.98 | - | 1.56 µg/mL
CCN1CC(C)(C)OC(=O)C1CC(=O)N1CCOCC1 | SC5314 | - | >50 µg/mL
CCCCCCCCCCCCCCCC(=O)NC(CCCN)C(=O)NC(CCCN)C(N)=O | ATCC 24433 | - | 6.25 µg/mL
O/N=C(\COc1ccccc1)c1ccccc1 | ATCC 10231 | 48 h | >125 µg/mL
CN(C)c1ccc(C=Nc2ccc(S(=O)(=O)Nn3c(Cc4ccccc4Nc4c(Cl)cccc4Cl)nc4ccccc4c3=O)cc2)cc1 | - | - | >1000 µg/mL
C[C@H]1[C@H](O)[C@@H](C)/C=C/C=C/C=C/C=C/C=C/C=C/C=C/[C@H](O[C@@H]2O[C@H](C)[C@@H](O)[C@H](N)[C@@H]2O)C[C@@H]2O[C@](O)(C[C@@H](O)C[C@@H](O)CC[C@H](O)[C@@H](O)C[C@@H](O)CC(=O)O[C@H]1C)C[C@H](O)[C@H]2C(=O)O | n. 1s | - | 2 µM
COc1cncc(C2=NS(=O)N(c3ccccc3)N2)n1 | - | - | 64 µg/mL
Cc1coc2c1C(=O)[C@@H]1[C@@](C)(C2)[C@H](O)CC[C@@]1(C)O | ATCC 90028 | - | 16 µg/mL
CCC[CH2][Sn+3].[S-]C(=Nc1ccccc1Cl)N/N=C(\c1ccccc1)c1ccccn1 | ATCC 18804 | - | 26.12 µM
CC1=C2C3=C4[C@@](C)(C(=O)[C@]2(O)OC1=O)[C@@H]1C[C@@H]1[C@@]4(O)C[C@@H]1[C@]32OC(=O)C3=C2C[C@H]2[C@](O)(COC(=O)/C(C)=C/COC(=O)CCC(=O)OC3)[C@H]3C[C@H]3[C@]12C | ATCC 90028 | - | 8 µg/mL
C[C@@H]1[C@@H](COCC(=O)O)C[C@@H](O[C@H]2[C@H](O)[C@@H](N(Cc3ccccc3)CC(O)C[N+](C)(C)C)[C@H](O[C@H]3[C@H](O)[C@@H](N(Cc4ccccc4)CC(O)C[N+](C)(C)C)[C@H](C)O[C@@H]3COCC(=O)O)O[C@@H]2COCC(=O)O)[C@H](N(Cc2ccccc2)CC(O)C[N+](C)(C)C)[C@H]1O | RCMB 05031 | - | 35.25 µg/mL
Cc1ccc2c(c1)nc1c(CN)c(-c3c(-c4ccc([N+](=O)[O-])cc4)[nH]c4ccccc34)c(CN)c(N)n12 | MTCC 227 | - | 1000 µg/mL
Nn1c(SCC(O)(Cn2cncn2)c2ccc(Cl)cc2Cl)nnc1-c1ccc(Cl)cc1Cl | IRFC 192 | - | 4 µg/mL
COc1ccccc1OC/C(=N/O)c1ccccc1 | ATCC 10231 | 24 h | 125 µg/mL
c1cnc(-c2n[nH]c(-c3cnccn3)n2)cn1 | - | - | >256 µg/mL
CN1CCN(c2n[nH]c(N3C(=O)CS[C@@H]3c3ccccc3)n2)CC1 | A39 | - | 10 µg/mL
COc1ccc(-c2[nH]c3ccccc3c2-c2c(CN)c(N)n3c(nc4ccccc43)c2CN)cc1 | MTCC 227 | - | 500 µg/mL
CCN1CC(C)(C)OC(=O)C1CC(=O)Nc1ccnn1C | SC5314 | - | >50 µg/mL
Cc1nn(-c2cccc(Cl)c2)c(Cl)c1C1CC(=O)N(c2ccc(F)cc2)C2=C1C(=O)CCC2 | MTCC 227 | - | 1000 µg/mL
CCNC(=O)CC1C(=O)OC(C)(C)CN1CC | SC5314 | - | 50 µg/mL
O=C1CS[C@H](c2ccccc2)N1c1nc(N2CCOCC2)n[nH]1 | A39 | - | 10 µg/mL
Cc1nc(-c2cnccn2)[nH][n+]1C | - | - | >256 µg/mL
OC(Cn1cncn1)(Cn1cncn1)c1ccc(F)cc1F | SC5314 | - | >100 µg/mL
Nn1c(SCC(O)(Cn2cncn2)c2ccc(Cl)cc2Cl)nnc1-c1ccc(Cl)cc1 | IRFC 36 | - | >64 µg/mL
NCc1c(-c2c(-c3ccc([N+](=O)[O-])cc3)[nH]c3ccccc23)c(CN)c2nc3ccccc3n2c1N | MTCC 227 | - | 1000 µg/mL
CC1=C2C(=O)c3c(C)coc3C[C@@]2(C)[C@H](O)C[C@H]1O | ATCC 90028 | - | 32 µg/mL
Cc1nn(-c2ccccc2)c(Cl)c1C1CC(=O)N(c2ccc(F)cc2)C2=C1C(=O)CCC2 | MTCC 227 | - | 1000 µg/mL
CCCNC(=O)CC1C(=O)OC(C)(C)CN1CC | SC5314 | - | >25 µg/mL
O=C(COc1cccc(F)c1)c1ccccc1 | ATCC 10231 | 24 h | >125 µg/mL
Nn1c(SCC(O)(Cn2cncn2)c2ccc(F)cc2F)nnc1-c1cccc(Br)c1 | ATCC 18804 | - | >64 µg/mL
NC(=NNS(=O)(=O)c1ccccc1)c1cncc(Cl)n1 | - | - | >256 µg/mL
Cc1ccc2c(c1)nc1c(CN)c(-c3c(-c4ccc(C#N)cc4)[nH]c4ccccc34)c(CN)c(N)n12 | MTCC 227 | - | >1000 µg/mL
COc1cc(OC/C(=N/O)c2ccccc2)cc(OC)c1OC | ATCC 10231 | 24 h | >125 µg/mL
CC1S[C@H](c2ccc(Cl)cc2)N(c2nc(N3CCOCC3)n[nH]2)C1=O | A39 | - | >100 µg/mL
C[C@H]1[C@H](O)[C@@H](C)/C=C/C=C/C=C/C=C/C=C/C=C/C=C/[C@H](O[C@@H]2O[C@H](C)[C@@H](O)[C@H](N)[C@@H]2O)C[C@@H]2O[C@](O)(C[C@@H](O)C[C@@H](O)CC[C@H](O)[C@@H](O)C[C@@H](O)CC(=O)O[C@H]1C)C[C@H](O)[C@H]2C(=O)O | ATCC 10231 | - | 0.078–1.25 µg/mL
O=C(COc1cccc(Cl)c1)c1ccccc1 | ATCC 10231 | 24 h | >125 µg/mL
CC1CC2=C(O1)c1ccccc1C(=O)C2=O | 1 | - | 12 µg/mL

For reference, 6 entries again:

Cc1ccc2c(c1)nc1c(CN)c(-c3c(-c4ccc(C#N)cc4)[nH]c4ccccc34)c(CN)c(N)n12 ; strain or isolate: MTCC 227 ; value: >1000 µg/mL
C[C@H]1[C@H](O)[C@@H](C)/C=C/C=C/C=C/C=C/C=C/C=C/C=C/[C@H](O[C@@H]2O[C@H](C)[C@@H](O)[C@H](N)[C@@H]2O)C[C@@H]2O[C@](O)(C[C@@H](O)C[C@@H](O)CC[C@H](O)[C@@H](O)C[C@@H](O)CC(=O)O[C@H]1C)C[C@H](O)[C@H]2C(=O)O ; strain or isolate: n. 1s ; value: 2 µM
Cc1nn(-c2cccc(Cl)c2)c(Cl)c1C1CC(=O)N(c2ccc(F)cc2)C2=C1C(=O)CC(C)(C)C2 ; strain or isolate: MTCC 227 ; value: 1000 µg/mL
CCCCCCCCCC(=O)NC(CCCN)C(=O)NC(CCCN)C(=O)NC(CCCN)C(=O)NC(CCCN)C(N)=O ; strain or isolate: ATCC 24433 ; value: >100 µg/mL
CCC[CH2][Sn+3].O=[N+]([O-])c1ccccc1N=C([S-])N/N=C(\c1ccccc1)c1ccccn1 ; strain or isolate: ATCC 18804 ; value: 6.42 µM
O=S1N=C(c2cnccn2)NN1c1ccccc1 ; value: 32 µg/mL